# Laboratory results: US6274636A (priority 1999, dated 2001)
# Test system: 5-HT-2 receptor
# Test: activity at the 5-HT-2 receptor
# Conditions: anhydrous Form II
compound,measurement,value
"Cc1cc2c(s1)Nc1ccccc1N=C2N1CCN(C)CC1 [anhydrous Form II, 2-methyl-4-(4-methyl-1-piperazinyl)-10H-thieno[2,3-b][1,5]benzodiazepine]",activity at the 5-HT-2 receptor,active
